A mixed list of measured activities; the numbers were collected in NIAID ChemDB.

Common to all: growth or infection tests

Neighbouring rows are from separate reports. Blank or dashed fields: not listed here. MIC50, MIC90 and the like: level of inhibition, or share of isolates inhibited.

structure	measure	strain	method	agent	conditions	value
C[C@@H]1CN(c2c(F)c(N)c3c(=O)c(C(=O)O)cn(C4CC4)c3c2F)C[C@H](C)N1	MIC	19	broth dilution	Mycobacterium avium complex	-	1 µg/mL
Nc1ccc(S(=O)(=O)c2ccc(N)cc2)cc1	MBC	ATCC 35840	-	Mycobacterium ulcerans	-	2 µg/mL
O=C(Nc1ccccc1)c1ccccc1OP(=O)(Oc1ccccc1)c1ccccc1	MIC	My 235/80	-	Mycobacterium kansasii	21 d	500 µM
CN(C)c1cc(NC(=O)CNC(C)(C)C)c(O)c2c1C[C@H]1C[C@H]3[C@H](N(C)C)C(=O)C(C(N)=O)=C(O)[C@@]3(O)C(=O)C1=C2O	MIC	V128	broth dilution	Mycobacterium massiliense	-	2 µg/mL
O=C(Nc1ccc(Cl)c(Cl)c1)c1cc(Cl)ccc1OP(=O)(OCc1ccccc1)OCc1ccccc1	MIC	My 6509/96	-	Mycobacterium kansasii	21 d	125 µM
CCn1cc(/C=N/NC(=S)NN)c2ccccc21	MIC100	1173P2	broth dilution	Mycobacterium bovis BCG	48 h	>500 µg/mL
CO[C@H]1/C=C/O[C@@]2(C)Oc3c(C)c(O)c4c(O)c(c5c(c4c3C2=O)NC2(CCN(CC(C)C)CC2)N=5)=NC(=O)/C(C)=C\C=C\[C@H](C)[C@H](O)[C@@H](C)[C@@H](O)[C@@H](C)[C@H](OC(C)=O)[C@@H]1C	MBC	921-5	-	Mycobacterium avium complex	-	16 µg/mL
NNC(=S)N/N=C/c1cn(Cc2ccc(F)cc2)c2ccccc12	MIC100	1173P2	broth dilution	Mycobacterium bovis BCG	24 h	>500 µg/mL
O=C(Nc1ccc(C(F)(F)F)cc1)c1cc(Cl)ccc1OP(=O)(OCc1ccccc1)OCc1ccccc1	MIC	My 6509/96	-	Mycobacterium kansasii	14 d	16 µM
NNC(=S)N/N=C/c1cn(Cc2ccccc2)c2ccccc12	MIC100	1173P2	broth dilution	Mycobacterium bovis BCG	48 h	>500 µg/mL
CO[C@@H]1C[C@@H](C[C@H]2CC[C@H](C)[C@H]([C@@H](C)C(=O)O)O2)O[C@]2(O[C@](C)([C@H]3CC[C@@](C)([C@@H]4O[C@@H]([C@H]5O[C@@](O)(CO)[C@H](C)C[C@@H]5C)C[C@@H]4C)O3)C[C@H]2C)[C@@H]1C	MIC	L948	resazurin	Mycobacterium abscessus	-	>20 µg/mL
CCCCCCn1cc(/C=N/Nc2nncs2)c2ccccc21	MIC100	1173P2	broth dilution	Mycobacterium bovis BCG	24 h	15.63 µg/mL
CNc1ccc2oc(C[C@@H]3OC4(CC[C@@H]3C)O[C@H](C(C)C(=O)c3ccc[nH]3)[C@H](C)C[C@H]4C)nc2c1C(=O)O	MIC	L948	resazurin	Mycobacterium abscessus	-	>20 µg/mL
O=C1c2cc(Cl)ccc2OP(=O)(c2ccccc2)N1c1ccc(Cl)cc1	MIC	My 6509/96	-	Mycobacterium kansasii	7 d	16 µM
CCN(CC)c1nc2c(s1)c1c(O)c3c(O)c(C)c4c(c32)C(=O)[C@@](C)(O/C=C/[C@H](OC)[C@@H](C)[C@@H](OC(C)=O)[C@H](C)[C@H](O)[C@H](C)[C@@H](O)[C@@H](C)/C=C/C=C(/C)C(=O)N1)O4	MIC50	50 strains	-	Mycobacterium avium	-	0.58 µg/mL
CO[C@H]1/C=C/O[C@@]2(C)Oc3c(C)c(O)c4c(O)c(c5c(c4c3C2=O)NC2(CCN(CC(C)C)CC2)N=5)=NC(=O)/C(C)=C\C=C\[C@H](C)[C@H](O)[C@@H](C)[C@@H](O)[C@@H](C)[C@H](OC(C)=O)[C@@H]1C	MIC90	58 isolates	-	Mycobacterium avium intracellulare	-	0.8 µg/mL
CC[C@@H](CO)NCCN[C@@H](CC)CO	MIC100	1173P2	broth dilution	Mycobacterium bovis BCG	48 h	0.75 µg/mL
O=C(Nc1ccc(Br)cc1)c1cc(Cl)ccc1OP(=O)(OCc1ccccc1)OCc1ccccc1	MIC	My 235/80	-	Mycobacterium kansasii	14 d	32 µM
CC[C@H]1OC(=O)[C@H](C)[C@@H](O[C@H]2C[C@@](C)(OC)[C@@H](O)[C@H](C)O2)[C@H](C)[C@@H](O[C@@H]2O[C@H](C)C[C@H](N(C)C)[C@H]2O)[C@](C)(OC)C[C@@H](C)C(=O)[C@H](C)[C@@H](O)[C@]1(C)O	MIC	X40	broth dilution	Mycobacterium abscessus	-	1 µg/mL
O=C(Nc1ccc(Cl)cc1)c1cc(Cl)ccc1OP(=O)(Oc1ccccc1)Oc1ccccc1	MIC	My 6509/96	-	Mycobacterium kansasii	21 d	8 µM
NC[C@H]1O[C@H](O[C@H]2[C@H](O)[C@@H](O[C@H]3O[C@H](CO)[C@@H](O)[C@H](N)[C@H]3O)[C@H](N)C[C@@H]2N)[C@H](O)[C@@H](O)[C@@H]1O	MIC	isolate C-17 19 26 34 44	-	Mycobacterium avium complex	-	≤12.5 µg/mL
O=C1c2cc(Cl)ccc2OP(=O)(c2ccccc2)N1c1ccc(C(F)(F)F)cc1	MIC	My 6509/96	-	Mycobacterium kansasii	7 d	8 µM
COc1cc(Cc2cnc(N)nc2N)cc(OC)c1OCCCNc1ccc(S(=O)(=O)c2ccc(N)cc2)cc1	MIC	Isolate 94-539	-	Mycobacterium ulcerans	-	2 µg/mL